Anti-infective test results gathered from many reports (values: NIAID ChemDB through PubChem).

All rows: host cell toxicity; cells: MT-4; read-out: CC50

CCn is the concentration with n% toxicity to the cells.

NCCCCNc1ccc2[nH]ccc2c1 ; method: MTT ; result: 19.23 µM
Cc1ccnc2c1NC(=O)c1cccnc1N2C1CC1 ; result: 224 µM
NC(=NCCNc1ccc2[nH]ccc2c1)N[N+](=O)[O-] ; method: MTT ; result: ≥400 µM
CCOP(=O)(OC[C@H]1O[C@@H](n2cc(C)c(=O)[nH]c2=O)C[C@@H]1N=[N+]=[N-])C(=O)NCCc1ccccc1 ; method: MTT ; result: 69.1 µM
c1cc2cc(NCCNC3=NCCN3)ccc2[nH]1 ; method: MTT ; result: 88.57 µM
Cn1cnc2c(ncn2[C@@H]2O[C@H](CO[Si](C)(C)C(C)(C)C)C3(OS(=O)(=O)C=C3N)[C@H]2O[Si](C)(C)C(C)(C)C)c1=O ; result: >100 µg/mL
COc1c(CCC(C)C)c(O)cc2c1C[C@H](c1ccc(O)c(CCC(C)C)c1O)CO2 ; result: 26 µg/mL
Cc1cn([C@H]2C[C@H](N=[N+]=[N-])[C@@H](CO)O2)c(=O)[nH]c1=O ; result: 10.8 µM
NCCNc1ccc2[nH]ccc2c1 ; method: MTT ; result: 252 µM
COc1cccc(C=Nc2nsc3ccccc23)c1O ; method: MTT ; result: 6 µM
Cn1ncc2c1S(=O)(=O)N(Cc1cccc(Cl)c1)C(=O)N2Cc1cccc(Cl)c1 ; method: MTT ; result: >277.2 µM
CCN[C@H]1CO[C@@H]2OCC[C@H](OC(=O)N[C@@H](Cc3ccccc3)[C@H](O)CN(CC(C)C)S(=O)(=O)c3ccc4nc(NC5CC5)sc4c3)[C@@H]21 ; method: MTT ; result: 40 µM
CC(C)C[C@H](NC(=O)[C@@H](NC(=O)N(C)Cc1ccccn1)C(C)C)C(=O)C(F)(F)[C@H](CC(C)C)NC(=O)[C@@H](NC(=O)N(C)Cc1ccccn1)C(C)C ; result: 63 µM
Cn1cnc2ncn([C@@H]3O[C@H](CO[Si](C)(C)C(C)(C)C)C4(OS(=O)(=O)C=C4N)[C@H]3O[Si](C)(C)C(C)(C)C)c2c1=O ; result: 89 µg/mL
Cc1ccnc(N2C(=O)CSC2c2c(F)cccc2Cl)n1 ; result: 134 µM
c1cnc2c(c1)cc(CN1CCCNCCNCCCNCC1)c1cccnc12 ; result: 16.1 µM
CCOP(=O)(OC[C@H]1O[C@@H](n2cc(C)c(=O)[nH]c2=O)C[C@@H]1N=[N+]=[N-])C(=O)N1CCOCC1 ; method: MTT ; result: 127 µM
c1cc(CCNCCCN2CCOCC2)ccc1CCNCCCN1CCOCC1 ; method: MTT ; result: 241 µM
Cc1cn([C@H]2C[C@H](N=[N+]=[N-])[C@@H](COP(=O)(O)C(=O)O)O2)c(=O)[nH]c1=O ; result: 161 µM
COC(=O)c1nn(COC(CO)CO)cc1I ; result: >300 µM
c1cnc2c(c1)cc(CN1CCNCCNCCNCC1)c1cccnc12 ; result: 17.6 µM
Cn1ncc2c1S(=O)(=O)N(Cc1cccc(Cl)c1)C(=O)N2Cc1ccc(Br)cc1 ; method: MTT ; result: >252.3 µM
Cc1cn([C@H]2C[C@H](N=[N+]=[N-])[C@@H](COP(=O)(OCCSC(=O)C(C)(C)C)Oc3ccc(C[C@@H](CO)NC(=O)OC(C)(C)C)cc3)O2)c(=O)[nH]c1=O ; result: >10 µM
Cc1cn([C@H]2C[C@H](N=[N+]=[N-])[C@@H](CO)O2)c(=O)[nH]c1=O ; result: 4.81 µM
COc1ccc(/C=N/c2nccs2)cc1 ; method: MTT ; result: >100 µM
CCN[C@H]1CO[C@@H]2OCC[C@H](OC(=O)N[C@@H](Cc3cccc(OC)c3)[C@H](O)CN(CC(C)C)S(=O)(=O)c3ccc4nc(NC(C)C)sc4c3)[C@@H]21 ; method: MTT ; result: 38 µM
COc1cc(C)nc(N2C(=O)CSC2c2c(F)cccc2Cl)n1 ; result: 215 µM
O=C(/C=C/c1ccccc1)c1ccccc1O ; result: 2 µg/mL
Nc1ncnc2c1ccn2[C@H]1C=C[C@@H](CO)O1 ; result: >1250 µM
CCc1cc(NCc2nc3c(Cl)ccc(Cl)c3o2)c(=O)[nH]c1C ; result: >60 µM
COC(=O)c1nn([C@H]2C[C@H](O)[C@@H](CO)O2)cc1I ; result: >300 µM
Cn1ncc2c1S(=O)(=O)N(Cc1cccc(Cl)c1)C(=O)N2 ; method: MTT ; result: 231.6 µM
Cc1cc(C)nc(N2C(=O)CSC2c2c(Cl)cccc2Cl)n1 ; result: 161 µM
CN(C)c1ncnc2c1ncn2[C@@H]1O[C@H](CO[Si](C)(C)C(C)(C)C)C2(OS(=O)(=O)C=C2N)[C@H]1O[Si](C)(C)C(C)(C)C ; result: 10 µg/mL
CCCOP(=O)(OC[C@H]1O[C@@H](n2cc(C)c(=O)[nH]c2=O)C[C@@H]1N=[N+]=[N-])C(N)=O ; method: MTT ; result: 48 µM
Cn1ncc2c1S(=O)(=O)N(Cc1cccc(Cl)c1)C(=O)N2Cc1ccccc1 ; method: MTT ; result: >300.1 µM
CNc1ncnc2c1ncn2[C@@H]1O[C@H](CO[Si](C)(C)C(C)(C)C)C2(OS(=O)(=O)C=C2N)[C@H]1O[Si](C)(C)C(C)(C)C ; result: 4–20 µg/mL
CCOP(=O)(OC[C@@H]1C=C[C@H](n2cc(C)c(=O)[nH]c2=O)O1)C(=O)NCCc1ccccc1 ; method: MTT ; result: 66.3 µM
CC(C)[C@H](NC(=O)OCc1ccccc1)C(=O)N[C@@H](Cc1ccccc1)C(=O)C(F)(F)[C@H](Cc1ccccc1)NC(=O)[C@@H](NC(=O)OCc1ccccc1)C(C)C ; result: >100 µM
Cc1cn([C@H]2C[C@H](N=[N+]=[N-])[C@@H](CO)O2)c(=O)[nH]c1=O ; result: >60 µM
O=C1CSC(c2c(Cl)cccc2Cl)N1c1ncccn1 ; result: 173 µM
CCOCn1c(Cc2ccccc2)c(C(C)C)c(=O)[nH]c1=O ; result: 102 µM
CC(C)[C@H](NS(=O)(=O)CCc1ccccn1)C(=O)N[C@@H](Cc1ccccc1)C(=O)C(F)(F)[C@H](Cc1ccccc1)NC(=O)[C@@H](NS(=O)(=O)CCc1ccccn1)C(C)C ; result: 42 µM
COc1ccc(-c2csc(/N=C/c3ccccc3)n2)cc1 ; method: MTT ; result: ≥100 µM
Cc1cn([C@H]2C[C@H](N=[N+]=[N-])[C@@H](CO)O2)c(=O)[nH]c1=O ; result: 215 µM
Cc1cn([C@H]2C[C@H](N=[N+]=[N-])[C@@H](CO)O2)c(=O)[nH]c1=O ; method: MTT ; result: 150 µM
NC(=NCCCNc1ccc2[nH]ccc2c1)N[N+](=O)[O-] ; method: MTT ; result: ≥360 µM
Nc1ncnc2c1ncn2[C@H]1C[C@@H](F)[C@@H](CO)O1 ; result: >1250 µM
O=c1[nH]cnc2c1ncn2[C@H]1CC[C@@H](CO)O1 ; result: >100 µg/mL
COc1ccc(-c2oc3c4c(cc(O)c3c(=O)c2CC=C(C)C)OC(C)(C)C=C4)c(OC)c1 ; result: >500 µg/mL
CC(C)(C)NC(=O)[C@@H]1CN(Cc2cccnc2)CCN1C[C@@H](O)C[C@@H](Cc1ccccc1)C(=O)N[C@H]1c2ccccc2C[C@H]1O ; result: >100 µg/mL
Cc1cc(=O)[nH]c(N2C(=O)CSC2c2c(F)cccc2F)n1 ; result: 6.55 µM
C(=N\c1nccs1)/c1ccccc1 ; method: MTT ; result: >100 µM
CCOC(=O)c1cn(Cc2ccncc2)c(Sc2cccc(Cl)c2)c1C(C)C ; method: MTT ; result: 42 µM
c1cc2cc(NCCNC3=NCCCN3)ccc2[nH]1 ; method: MTT ; result: 203 µM
CC(C)(C)[Si](C)(C)OC[C@H]1O[C@@H](n2cnc3nc[nH]c(=O)c32)[C@H](O[Si](C)(C)C(C)(C)C)C12OS(=O)(=O)C=C2N ; result: 8.5 µg/mL
CC(=O)c1ccc(C)cc1NC(C(N)=O)c1c(Cl)cccc1Cl ; result: 49 µg/mL
O=C(Cc1ccc(CNCCCN2CCCCC2)cc1)NCCCN1CCCCC1 ; method: MTT ; result: >60.29 µM
COC(=O)[C@@H](C)NC(=O)c1c(C)cc2c(c1O)-c1c(cc3c(c1O)C(=O)c1cc(OC)cc(O)c1C3=O)[C@H](O)[C@H]2O[C@@H]1O[C@H](CO)[C@H](N)[C@H](O)[C@H]1O ; result: >101 µg/mL
CC(C)=CCc1c(O)ccc2c1OC(c1ccccc1)CC2=O ; result: >63 µg/mL
CCOC(=O)P(=O)(OC[C@H]1O[C@@H](n2cc(C)c(=O)[nH]c2=O)C[C@@H]1N=[N+]=[N-])OC12CC3CC(CC(C3)C1)C2 ; method: MTT ; result: 195.5 µM
Cn1ncc2c1S(=O)(=O)N(Cc1cccc(Cl)c1)C(=O)N2Cc1ccc(F)cc1 ; method: MTT ; result: 208.9 µM
Cc1cc(C)nc(N2C(=O)CSC2c2c(F)cccc2Cl)n1 ; result: 174 µM
N#Cc1cn([C@H]2C=C[C@@H](CO)O2)c2ncnc(N)c12 ; result: 44 µM
CCOC(=O)c1cn(Cc2c(F)cccc2F)c(Sc2cc(Cl)cc(Cl)c2)c1C(C)C ; method: MTT ; result: >200 µM
NC(=O)c1nn(COC(CO)CO)cc1I ; result: >300 µM
Cc1ccnc2c1NC(=O)c1cccnc1N2C1CC1 ; result: 70 µg/mL
COC(=O)CNP(=O)(OC[C@H]1O[C@@H](n2cc(C)c(=O)[nH]c2=O)C[C@@H]1N=[N+]=[N-])Oc1ccccc1 ; result: >500 µM
Cc1cn([C@H]2C[C@H](N=[N+]=[N-])[C@@H](CO)O2)c(=O)[nH]c1=O ; result: 6 µM
CCOP(=O)(OC[C@@H]1C=C[C@H](n2cc(C)c(=O)[nH]c2=O)O1)C(N)=O ; method: MTT ; result: 214 µM
CCc1cc(NCc2cc3c(Cl)ccc(Cl)c3o2)c(=O)[nH]c1C ; result: >60 µM
c1cc(CNCCN2CCCCC2)ccc1CNCCN1CCCCC1 ; method: MTT ; result: 32.6 µM
CCOC(=O)P(=O)(OCC)OC[C@H]1O[C@@H](n2cc(C)c(=O)[nH]c2=O)C[C@@H]1N=[N+]=[N-] ; method: MTT ; result: 141.7 µM
CC(C)c1c(COC(N)=O)cn(Cc2ccncc2)c1Sc1cccc(Cl)c1 ; method: MTT ; result: >200 µM
Cc1cn([C@H]2C[C@H](N=[N+]=[N-])[C@@H](CO)O2)c(=O)[nH]c1=O ; result: >10 µM
C(=N\c1nc2ccccc2s1)/c1ccccc1 ; method: MTT ; result: >100 µM
Cc1ccnc(-c2cc(CN3CCCNCCNCCCNCC3)ccn2)c1 ; result: 1.13 µM
c1cc(CCNCCCN2CCCC2)ccc1CCNCCCN1CCCC1 ; method: MTT ; result: 95.7 µM
NC(N)=NCCCNc1ccc2[nH]ccc2c1.O=S(O)O ; method: MTT ; result: 38.03 µM
CC1CCCCN1CCCNCc1ccc(CC(=O)NCCCN2CCCCC2C)cc1 ; method: MTT ; result: >56.47 µM
COc1ccc(S(=O)(=O)O)cc1N=Nc1c(S(=O)(=O)O)cc2cc(Nc3nc(Nc4ccccc4)nc(Nc4cc(C)c(N=Nc5cc(S(=O)(=O)O)cc6cc(S(=O)(=O)O)cc(O)c56)cc4OC)n3)ccc2c1O ; method: MTT ; result: >50 µg/mL
CCOC(=O)c1cn(Cc2ccncc2)c(Sc2cc(C)cc(C)c2)c1C(C)C ; method: MTT ; result: ≥200 µM
Cc1cn([C@H]2C[C@H](N=[N+]=[N-])[C@@H](COP(=O)(O)O)O2)c(=O)[nH]c1=O ; method: trypan blue / absorbance ; result: 648 µM
CC1CCCCN1CCCNCCc1ccc(CNCCCN2CCCCC2C)cc1 ; method: MTT ; result: >58.32 µM
CC(C)CN(C[C@@H](O)[C@H](Cc1ccccc1)NC(=O)O[C@H]1CCOC1)S(=O)(=O)c1ccc(N)cc1 ; method: MTT ; result: 208 µM
c1cn(CCCNCCc2ccc(CCNCCCn3ccnc3)cc2)cn1 ; method: MTT ; result: >328 µM
COc1cc(Oc2c(C)cc(C)cc2C)cc(Nc2ccc(C#N)cc2)n1 ; method: MTT ; result: 29 µM

The last 13 rows once more:

smiles	method	result
Cc1cn([C@H]2C[C@H](N=[N+]=[N-])[C@@H](CO)O2)c(=O)[nH]c1=O	-	>10 µM
C(=N\c1nc2ccccc2s1)/c1ccccc1	MTT	>100 µM
Cc1ccnc(-c2cc(CN3CCCNCCNCCCNCC3)ccn2)c1	-	1.13 µM
c1cc(CCNCCCN2CCCC2)ccc1CCNCCCN1CCCC1	MTT	95.7 µM
NC(N)=NCCCNc1ccc2[nH]ccc2c1.O=S(O)O	MTT	38.03 µM
CC1CCCCN1CCCNCc1ccc(CC(=O)NCCCN2CCCCC2C)cc1	MTT	>56.47 µM
COc1ccc(S(=O)(=O)O)cc1N=Nc1c(S(=O)(=O)O)cc2cc(Nc3nc(Nc4ccccc4)nc(Nc4cc(C)c(N=Nc5cc(S(=O)(=O)O)cc6cc(S(=O)(=O)O)cc(O)c56)cc4OC)n3)ccc2c1O	MTT	>50 µg/mL
CCOC(=O)c1cn(Cc2ccncc2)c(Sc2cc(C)cc(C)c2)c1C(C)C	MTT	≥200 µM
Cc1cn([C@H]2C[C@H](N=[N+]=[N-])[C@@H](COP(=O)(O)O)O2)c(=O)[nH]c1=O	trypan blue / absorbance	648 µM
CC1CCCCN1CCCNCCc1ccc(CNCCCN2CCCCC2C)cc1	MTT	>58.32 µM
CC(C)CN(C[C@@H](O)[C@H](Cc1ccccc1)NC(=O)O[C@H]1CCOC1)S(=O)(=O)c1ccc(N)cc1	MTT	208 µM
c1cn(CCCNCCc2ccc(CCNCCCn3ccnc3)cc2)cn1	MTT	>328 µM
COc1cc(Oc2c(C)cc(C)cc2C)cc(Nc2ccc(C#N)cc2)n1	MTT	29 µM

Blank or dashed fields: not listed here. a–b is a range or a potency band. Neighbouring rows are from separate reports.